Compound potency records, mixed from different reports. Data source: NIAID ChemDB in PubChem.

All rows: toxicity to cultured cells; cells: MT-4; read by: MTT; measure: CC50

CCn: concentration that lowers growth or viability of the cells by n%. Conditions beyond the fields shown may differ between rows.

smiles | value
N#CSc1ccc2nc(NC(=O)CN3C(=O)S/C(=C/c4ccccc4)C3=O)sc2c1 | 73 µM
Cn1cc(C(=O)O)c(=O)c2cc(N)c(N3CCN(c4nc5ccccc5o4)CC3)cc21 | 0.098 µg/mL
O=C1N(Cc2ccc(Cl)cc2Cl)c2cccn2S(=O)(=O)N1Cc1ccccc1 | 273 µM
COc1ccc(CCNc2nc(NC(=O)Nc3ccc(Br)cc3)nc(Oc3cc(=O)oc4ccccc34)n2)cc1OC | 47.63 µg/mL
Cc1cc(-c2ccc(C#N)cc2)ccc1Oc1nc(Nc2ccc(C#N)cc2)nc2ccsc12 | 18.5 µM
Cc1cc(C#N)cc(C)c1Oc1nc(Nc2ccc(C#N)cc2)ncc1C#CC(=O)NCCCN1CCOCC1 | 59.2 µM
O=C1N(Cc2cccc(Cl)c2)c2cccn2S(=O)(=O)N1Cc1ccccc1 | 239 µM
Cc1cc2ccccc2cc1Oc1ccnc(Nc2ccc(C#N)cc2)n1 | >70.94 µM
COC(=O)CCC/C=C(/c1cc(C)c2on(C)c(=O)c2c1)c1cc(Cl)ccc1OC | 28.8 µM
CCOCn1c(Cc2ccccc2)c(C(C)C)c(=O)[nH]c1=O | >100 µM
C/C(=N\Nc1nc(-c2ccc([N+](=O)[O-])cc2)cs1)c1ccc(-n2ccnc2)cc1 | 38.9 µM
CCCc1c(Cc2ccccc2)n(COC/C=C/c2ccccc2)c(=O)[nH]c1=O | 29 µM
CCOC(=O)CNc1nc(Nc2ccc3ccccc3c2)nc(Oc2cc(=O)oc3ccccc23)n1 | 46.53 µg/mL
CCc1c(Cl)nc(Nc2ccc(C#N)cc2)nc1Oc1ccc2cc(C#N)ccc2c1 | 197 µM
COc1ccc(CCNc2nc(NC(=S)Nc3ccccc3C)nc(Oc3cc(=O)oc4ccccc34)n2)cc1OC | 20.03 µg/mL
CN(C)c1ccc(/C=C2/SC(=O)N(CC(=O)Nc3nc4ccc(SC#N)cc4s3)C2=O)cc1 | 61 µM
CCc1c(Cc2cccc(Cc3nc(SC)n(C)c(=O)c3CC)c2)nc(SC)nc1OC | 80 µM
CCOC(=O)CNc1nc(Nc2ccc(OCC)cc2)nc(Oc2cc(=O)oc3ccccc23)n1 | 62.13 µg/mL
CNc1nc(Nc2ccc(C#N)cc2)nc(Oc2ccc3ccccc3c2Br)c1C(C)C | 64.66 µM
CCCc1c(Cc2ccccc2)n(COC/C(C)=C/c2ccccc2)c(=O)[nH]c1=O | 30 µM
CNc1cc(Oc2ccc3cc(Br)ccc3c2)nc(Nc2ccc(C#N)cc2)n1 | 182 µM
COc1ccc(CCNc2nc(NC(=S)Nc3ccc4ccccc4c3)nc(Oc3cc(=O)oc4ccccc34)n2)cc1OC | 54.6 µg/mL
N#Cc1ccc(Nc2nccc(Oc3ccc4ccccc4c3)n2)cc1 | 369 µM
Cc1cc(C#N)cc(C)c1Oc1nc(Nc2ccc(C#N)cc2)ncc1C#CC(=O)NCCN1CCN(C(=O)OC(C)(C)C)CC1 | 22.4 µM
O=C1CC2CCC1C1C(=O)N(CC(O)CN3CCN(c4ccc(F)cc4)CC3)C(=O)C21 | >100 µM
CCCNc1c(N=Nc2ccc(-c3ccc(OC)c(OC)c3)cc2)c(N)nc(=O)n1C | 36.76 µM
O=C1N(Cc2ccc(Cl)cc2Cl)c2cccn2S(=O)(=O)N1Cc1cccc(Cl)c1 | 251 µM
Cc1cc(/C=C/C#N)cc(C)c1Oc1ccnc(S(=O)(=O)CC(=O)NCCc2ccc(F)cc2)n1 | 55.53 µM
Cn1c(N2CCCCC2)c(N=Nc2ccc(Cl)cc2)c(N)nc1=O | 20.11 µM
N#Cc1ccc(Nc2nc(Oc3ccc(-c4ccc(C#N)cc4)c([N+](=O)[O-])c3)c3sccc3n2)cc1 | 70.2 µM
O=C1/C(=C\c2cccc([N+](=O)[O-])c2)N(CCc2cccs2)C(=S)N1CCc1cccs1 | 100 µg/mL
CCOC(=O)CNc1nc(NC(=O)Nc2ccc(C)cc2)nc(Oc2cc(=O)oc3ccccc23)n1 | 11.27 µg/mL
Cc1ccc(/C=N/Nc2nc(-c3ccc(Br)cc3)cs2)cc1 | 125 µM
O=C1CC2CCC1C1C(=O)N(CCCN3CCN(c4ccccc4O)CC3)C(=O)C21 | >100 µM
N#CSc1ccc2nc(NC(=O)CN3C(=O)S/C(=C/c4cccc(Oc5ccccc5)c4)C3=O)sc2c1 | >100 µM
COC(=O)C(NC(=O)CCCN1C(=O)c2ccccc2C1=O)C(C)C | 125 µM
Cc1cc(C)cc(S(=O)(=O)c2c(C(=O)NCC(=O)NC(C)C(=O)NN)[nH]c3ccc(Cl)cc23)c1 | 100 µM
Cc1cc(-c2ccc(C#N)cc2)cc(C)c1Oc1ccnc(S(=O)(=O)CC(=O)NCc2ccc(F)cc2)n1 | 6.41 µM
CC(C)C(NC(=S)NC(=O)CCCN1C(=O)c2ccccc2C1=O)C(=O)O | 26.73 µM
C[C@H](CS)C(=O)N1CCC[C@@H]1c1nc2ncccc2[nH]1 | 5.12 µg/mL
N#Cc1ccc(-c2csc(N/N=C/c3ccccc3O)n2)cc1 | 104 µM
O=C1N(Cc2ccc(Cl)cc2Cl)c2cccn2S(=O)(=O)N1Cc1cccc(F)c1 | >275 µM
CCCCCCNc1c(N=Nc2ccc(Cl)cc2)c(N)nc(=O)n1C | 66.6 µM
C=CCOCn1c(Cc2cccc(Cc3c(CC)c(=O)[nH]c(=O)n3COCC=C)c2)c(CC)c(=O)[nH]c1=O | >100 µM
O=C1N(Cc2ccccc2Cl)c2cccn2S(=O)(=O)N1Cc1ccccc1 | 291 µM
O=C(CCCN1C(=O)c2ccccc2C1=O)NC(=S)NC(CO)C(=O)O | 89.5 µM
C#CCNC(=O)/C=C/c1cnc(Nc2ccc(C#N)cc2)nc1Oc1c(C)cc(C#N)cc1C | 141 µM
CCOC(=O)CNc1nc(NC(=O)Nc2ccc3ccccc3c2)nc(Oc2cc(=O)oc3ccccc23)n1 | >125 µg/mL
C[C@H](CSCC(N)=O)C(=O)N1CCC[C@@H]1C(=O)O | 3.12 µg/mL
C=CCNc1c(N=Nc2ccc(-c3ccc(F)cc3)cc2)c(N)nc(=O)n1C | 10.42 µM
CCc1c(Cc2cccc(Cc3nc(N(C)C)[nH]c(=O)c3CC)c2)nc(N(C)C)[nH]c1=O | >100 µM
C/C(=N\Nc1nc(-c2ccc(Cl)cc2)cs1)c1ccc(-n2ccnc2)cc1 | 92.25 µM
CCCc1c(Cc2cc(C)cc(C)c2)n(COCC2CC=CCC2)c(=O)[nH]c1=O | 30 µM
O=C1/C(=C\c2ccc(F)cc2)N(CCc2cccs2)C(=S)N1CCc1cccs1 | >93.1 µg/mL
COc1cccc2c1c(/C(O)=C\C(=O)C(=O)O)cn2Cc1ccc(F)cc1 | 41.1 µM
N#Cc1ccc(Nc2nc(Oc3ccc(-c4ccc(C#N)cc4)c(F)c3F)c3sccc3n2)cc1 | 216.9 µM
O=C1/C(=C\c2ccccc2)N(CCc2cccs2)C(=S)N1CCc1cccs1 | 59.38 µg/mL
O=C1CC2CCC1C1C(=O)N(CCCCN3CCN(c4ccccc4)CC3)C(=O)C21 | >100 µM
COC(=O)C(CCSC)NC(=O)CCCN1C(=O)c2ccccc2C1=O | 18.85 µM
CC1CCN(CC(O)CN2C(=O)C3C4CCC(C(=O)C4)C3C2=O)CC1 | >100 µM
N#Cc1ccc(Nc2nc(Oc3ccc(-c4ccc(C#N)cc4)c(C#N)c3)c3sccc3n2)cc1 | 192.1 µM
CCc1nc([N+](=O)[O-])c(N2CCN(C(=O)CSC[C@@H](C)C(=O)N3CCC[C@@H]3C(=O)O)CC2)n1Cc1ccccc1 | 2.23 µg/mL
O=C1CC2CCC1C1C(=O)N(CCCCN3CCN(c4ccccn4)CC3)C(=O)C21 | >100 µM
Cc1cc(/C=C/C#N)cc(C)c1Oc1ccnc(S(=O)(=O)CC(=O)NCCc2ccc(Cl)cc2)n1 | 24.46 µM
C[C@H](CSCC(=O)O)C(=O)N1CCC[C@@H]1C(=O)O | 125 µg/mL
O=C(CCCN1C(=O)c2ccccc2C1=O)NC(=S)NC(CS)C(=O)O | 90.9 µM
N#Cc1ccc(Nc2nc(Oc3ccc(-c4ccc(C#N)cc4)cc3Cl)c3sccc3n2)cc1 | 33.6 µM
c1cc(CNCc2ccc(CN3CCCNCCNCCCNCC3)cc2)ccn1 | >250 µg/mL
COc1ccc(CCNc2nc(NC(=S)Nc3cccc(Cl)c3)nc(Oc3cc(=O)oc4ccccc34)n2)cc1OC | 16.78 µg/mL
CCNc1c(N=Nc2ccc(Cl)cc2)c(N)nc(=O)n1C | 36.72 µM
O=C1CC2CCC1C1C(=O)N(CCCCN3CCN(Cc4ccccc4)CC3)C(=O)C21 | >100 µM
CCc1c(NC)nc(Nc2ccc(C#N)cc2)nc1Oc1ccc2ccccc2c1 | 152 µM
Cc1cc(-c2ccc(C#N)cc2)cc(C)c1Oc1ccnc(S(=O)(=O)C(C)C(=O)NCc2ccc(F)cc2)n1 | 20.19 µM
Cc1ccnc2c1NC(=O)c1cccnc1N2C1CC1 | >4 µM
O=C1CC2CCC1C1C(=O)N(CCCCN3CCN(c4ccc(F)cc4)CC3)C(=O)C21 | >100 µM
Cc1c(C(C#N)c2ccccc2)nc(SC(C)C)[nH]c1=O | 10.81 µM
N#CSc1ccc2nc(NC(=O)CN3C(=O)S/C(=C/c4cccc(-c5ccco5)c4)C3=O)sc2c1 | >100 µM
Cc1ccccc1N1CCN(CCCN2C(=O)C3C4CCC(C(=O)C4)C3C2=O)CC1 | >100 µM
CCc1c(Cc2cccc(Cc3nc(SC(C)C)[nH]c(=O)c3CC)c2)nc(SC(C)C)nc1OC(C)C | 43 µM
COc1ccccc1N1CCN(CCCN2C(=O)C3C4CCC(C(=O)C4)C3C2=O)CC1 | >100 µM
C=CCOCn1c(Cc2cccc(Cc3[nH]c(=O)[nH]c(=O)c3CC)c2)c(CC)c(=O)[nH]c1=O | >100 µM
CC(=O)c1ccc(N2CCN(c3cc4c(cc3N)c(=O)c(C(=O)O)cn4C)CC2)cc1 | 0.157 µg/mL
Cc1cc(C#N)cc(C)c1Oc1nc(Nc2ccc(C#N)cc2)ncc1C#CC(=O)NCCN1CCN(S(C)(=O)=O)CC1 | 4.89 µM
CCc1c(Cc2cccc(Cc3[nH]c(=S)[nH]c(=O)c3CC)c2)[nH]c(=S)[nH]c1=O | >100 µM

Repeating the first 7 entries:

smiles | value
N#CSc1ccc2nc(NC(=O)CN3C(=O)S/C(=C/c4ccccc4)C3=O)sc2c1 | 73 µM
Cn1cc(C(=O)O)c(=O)c2cc(N)c(N3CCN(c4nc5ccccc5o4)CC3)cc21 | 0.098 µg/mL
O=C1N(Cc2ccc(Cl)cc2Cl)c2cccn2S(=O)(=O)N1Cc1ccccc1 | 273 µM
COc1ccc(CCNc2nc(NC(=O)Nc3ccc(Br)cc3)nc(Oc3cc(=O)oc4ccccc34)n2)cc1OC | 47.63 µg/mL
Cc1cc(-c2ccc(C#N)cc2)ccc1Oc1nc(Nc2ccc(C#N)cc2)nc2ccsc12 | 18.5 µM
Cc1cc(C#N)cc(C)c1Oc1nc(Nc2ccc(C#N)cc2)ncc1C#CC(=O)NCCCN1CCOCC1 | 59.2 µM
O=C1N(Cc2cccc(Cl)c2)c2cccn2S(=O)(=O)N1Cc1ccccc1 | 239 µM